Anti-infective test results gathered from many reports (values: NIAID ChemDB through PubChem).

Shared fields: whole-cell or culture tests; species: Sindbis virus; cell line: VERO; endpoint: EC50

ECn: concentration that inhibits the pathogen or its effect by n%. An empty or dashed field is not shown. Rows are shuffled and stem from different studies.

| smiles | read by | result |
|---|---|---|
| Nc1ncnc2c1ncn2[C@@H]1C=C(CF)[C@H](O)[C@H]1O | cytopathic effect | 7 µg/mL |
| CC(=O)N[C@H]1[C@@H](OC(=O)NS(=O)(=O)OC[C@H]2O[C@@H](n3ccc(=O)[nH]c3=O)[C@H](OC(C)C)[C@@H]2OC(C)C)O[C@H](COC(C)=O)[C@@H](OC(C)=O)[C@@H]1OC(C)=O | plaque count | >100 µg/mL |
| NC(=S)c1cncc([C@H]2O[C@H](CO)[C@@H](O)[C@@H]2O)c1 | cytopathic effect | ≥100 µg/mL |
| C/C(O)=C1\C(=N)N(COCCO)S(=O)(=O)N=C1N | - | >400 µg/mL |
| Cc1cn([C@@H]2OC[C@H](CO)[C@H]2N=[N+]=[N-])c(=O)[nH]c1=O | cytopathic effect | >80 µg/mL |
| c1ccc(-c2nn3c(-c4cn(-c5ccccc5)nc4-c4ccccc4)nnc3s2)cc1 | cytopathic effect | >16 µg/mL |
| CC1(C)[C@@H](CCO)C[C@H]1n1nnc2c(N)nc(N)nc21 | cytopathic effect | >400 µg/mL |
| CC(C)OC1[C@H](n2ccc(=O)[nH]c2=O)O[C@H](COS(=O)(=O)NC(=O)N[C@@H]2O[C@H](COC(=O)c3ccccc3)[C@@H](OC(=O)c3ccccc3)[C@H](OC(=O)c3ccccc3)[C@H]2OC(=O)c2ccccc2)[C@H]1OC(C)C | plaque count | 200 µg/mL |
| CC=NC(=N)c1nc(-c2ccccc2)n(C/C=C/c2ccccc2)n1 | cytopathic effect | >4 µg/mL |
| CCCCCCCCCCCCCCCC(=O)OC[C@H]1O[C@H](OC(=O)NS(=O)(=O)OC[C@H]2O[C@@H](n3ccc(=O)[nH]c3=O)[C@H](OC(C)C)[C@@H]2OC(C)C)[C@H](OC(=O)CCCCCCCCCCCCCCC)[C@@H](OC(=O)CCCCCCCCCCCCCCC)[C@@H]1OC(=O)CCCCCCCCCCCCCCC | plaque count | >100 µg/mL |
| CC(=O)OCCOCN1C=CC(=O)N(COCCO)S1(=O)=O | - | >400 µg/mL |
| Nc1ccn([C@@H]2OC[C@H](CO)[C@H]2O)c(=O)n1 | cytopathic effect | >80 µg/mL |
| CCOC(=O)Sc1nnc(-c2cn(-c3ccccc3)nc2-c2ccccc2)n1N | cytopathic effect | >80 µg/mL |
| CC=NC(=N)c1nc(-c2ccc(OC)cc2)n(C/C=C/c2ccccc2)n1 | cytopathic effect | >100 µg/mL |
| Nc1ncnc2c1ncn2CCCC(O)CF | cytopathic effect | >400 µg/mL |
| C=C(N=CC)c1nc(-c2cccc(C)c2)n([C@@H]2O[C@H](CO)[C@@H](O)[C@H]2O)n1 | cytopathic effect | >40 µg/mL |
| COC(=O)[C@]1(C)CCC[C@]2(C)c3cc(Br)c4nc(C(F)(F)F)[nH]c4c3CCC12 | plaque count | >4 µg/mL |
| O=C(NS(=O)(=O)OC[C@H]1O[C@@H](n2ccc(=O)[nH]c2=O)[C@H](O)[C@@H]1O)O[C@@H]1C[C@@H](OC(=O)c2ccccc2)[C@H](OC(=O)c2ccccc2)[C@@H](COC(=O)c2ccccc2)O1 | plaque count | 200 µg/mL |
| Nc1ncnc2c1ncn2[C@H]1OC[C@@H](CO)C1O | cytopathic effect | >80 µg/mL |
| COC(=O)Nc1nc2c3c(ccc2[nH]1)[C@@]1(C)CCC[C@@](C)(C(=O)OC)C1CC3 | plaque count | >4 µg/mL |
| CC1(CO)CCC(Cn2nnc3c(N)ncnc32)C1(C)C | cytopathic effect | >40 µg/mL |
| O=C(NS(=O)(=O)OC[C@H]1O[C@@H](n2ccc(=O)[nH]c2=O)[C@H](O)[C@@H]1O)O[C@H]1O[C@H](COC(=O)c2ccccc2)[C@@H](OC(=O)c2ccccc2)[C@H](OC(=O)c2ccccc2)[C@@H]1OC(=O)c1ccccc1 | plaque count | >200 µg/mL |
| S=c1[nH]n2c(-c3cn(-c4ccccc4)nc3-c3ccccc3)nnc2s1 | cytopathic effect | >80 µg/mL |
| NC(=O)CSc1ncnc2c1cnn2CCCCO | cytopathic effect | >400 µg/mL |
| CC1(C)[C@@H](CCO)C[C@H]1n1nnc2c(N)ncnc21 | cytopathic effect | >100 µg/mL |
| N#CC1=CSc2nnc(-c3cn(-c4ccccc4)nc3-c3ccccc3)n2N=C1N | cytopathic effect | >16 µg/mL |
| Nc1nc2c(ncn2CC[C@H](O)CCO)c(=O)[nH]1 | cytopathic effect | >400 µg/mL |
| CC(C)O[C@@H]1[C@H](OC(C)C)[C@@H](COS(=O)(=O)NC(=O)O[C@@H]2C[C@@H](OC(=O)c3ccccc3)[C@H](OC(=O)c3ccccc3)[C@@H](COC(=O)c3ccccc3)O2)O[C@H]1n1ccc(=O)[nH]c1=O | plaque count | 100 µg/mL |
| CC=NC(=N)c1nc(-c2cccc(OC)c2)n(Cc2ccccc2)n1 | cytopathic effect | >10 µg/mL |
| Nc1nc2c(ccn2[C@H]2CO[C@@H](CO)C2)c(=O)[nH]1 | cytopathic effect | >400 µg/mL |
| CC1(CO)CCC(Cn2ccc(=O)[nH]c2=O)C1(C)C | cytopathic effect | >400 µg/mL |
| C=C(N=CC)c1nc(-c2ccc(OC)cc2)n(C2O[C@H](CO)[C@@H](O)[C@H](O)[C@H]2O)n1 | cytopathic effect | >200 µg/mL |
| NC1=Nn2c(nnc2-c2cn(-c3ccccc3)nc2-c2ccccc2)SC1 | cytopathic effect | >16 µg/mL |
| NC1CSCON2CCc3c([nH]c4ccccc34)[C@H]12 | cytopathic effect | 0.2 µg/mL |
| OC[C@H]1O[C@H](c2cncc(Br)c2)[C@@H](O)[C@H]1O | cytopathic effect | ≥100 µg/mL |
| CO[C@H](CO)[C@@H](O)CCn1cnc2c(N)ncnc21 | cytopathic effect | >400 µg/mL |
| OC[C@H]1O[C@@H](c2cncc(Br)c2)[C@@H](O)[C@@H]1O | cytopathic effect | ≥100 µg/mL |
| CCC(Sc1ncnc2c1cnn2COCC(O)CO)C(N)=O | cytopathic effect | >400 µg/mL |
| O=c1[nH]n2c(-c3cn(-c4ccccc4)nc3-c3ccccc3)nnc2s1 | cytopathic effect | >80 µg/mL |
| Cc1cn(CC[C@H](O)CCO)c(=O)[nH]c1=O | cytopathic effect | >400 µg/mL |
| Nc1ccn(C(CF)CCCO)c(=O)n1 | cytopathic effect | >400 µg/mL |
| COC(=O)[C@]1(C)CCC[C@]2(C)c3cc(Br)c4nc[nH]c4c3CCC12 | plaque count | >4 µg/mL |
| COCC1=C[C@@H](n2cnc3c(N)ncnc32)[C@H](O)[C@@H]1O | cytopathic effect | 70 µg/mL |
| CCOC(=O)C1=CN(COCCO)S(=O)(=O)NC1=O | - | >400 µg/mL |
| NC(=O)c1cncc([C@H]2O[C@H](CO)[C@@H](O)[C@@H]2O)c1 | cytopathic effect | ≥100 µg/mL |
| Nc1nc2c(ncn2[C@H]2CO[C@@H](CO)C2)c(=O)[nH]1 | cytopathic effect | >400 µg/mL |
| [N-]=[N+]=NC(CBr)c1cc([C@H]2C[C@H](O)[C@@H](CO)O2)c(F)cc1F | cytopathic effect | >16 µg/mL |
| COc1cc2c(cc1OC)[C@@H]1C(N)CSCON1CC2 | cytopathic effect | 0.07 µg/mL |
| Nc1ncnc2c1ncn2C1CC(CO)[C@@H](O)[C@H]1O | cytopathic effect | 3 µg/mL |
| CC=NC(=N)c1nc(-c2cccc(OC)c2)n(COCCO)n1 | cytopathic effect | >100 µg/mL |
| CC(=O)OCCOCN1C(C)=CC(N)=[N+](c2ccccc2)S1(=O)=O | - | >400 µg/mL |
| COC(=O)[C@]1(C)CCC[C@]2(C)c3cc(Br)c4[nH]ccc4c3CCC12 | plaque count | >4 µg/mL |
| Cc1cn(CCCC(O)CF)c(=O)[nH]c1=O | cytopathic effect | >400 µg/mL |
| CC(=O)O[C@H]1C[C@H](n2cc(C)c(=O)[nH]c2=O)O[C@@H]1COS(=O)(=O)NC(=O)O[C@H]1O[C@H](COCc2ccccc2)[C@@H](OCc2ccccc2)[C@H](OCc2ccccc2)[C@H]1OCc1ccccc1 | plaque count | 50 µg/mL |
| N#Cc1cncc([C@@H]2O[C@H](CO)[C@@H](O)[C@@H]2O)c1 | cytopathic effect | ≥100 µg/mL |
| Nc1ncnc2c1ncn2[C@@H]1C[C@H](COP(=O)(O)O)[C@@H](O)[C@H]1O | cytopathic effect | >200 µg/mL |
| O=C1C=CN(COCCO)S(=O)(=O)N1COCCO | - | >400 µg/mL |
| CC1(CO)CCC(Cn2nnc3c(=O)[nH]cnc32)C1(C)C | cytopathic effect | >400 µg/mL |
| CC(Sc1ncnc2c1cnn2CCCCO)C(N)=O | cytopathic effect | >400 µg/mL |
| NC(=O)c1cncc([C@@H]2O[C@H](CO)[C@H](O)[C@@H]2O)c1 | cytopathic effect | ≥100 µg/mL |
| CC=NC(=N)c1nc(-c2cccc(OC)c2)n(C/C=C/c2ccccc2)n1 | cytopathic effect | >40 µg/mL |
| CON1CCc2c([nH]c3ccccc23)[C@@H]1[C@@H](N)CSC | cytopathic effect | >40 µg/mL |
| CC=NC(=N)c1nc(-c2cccc(C)c2)n(C/C=C/c2ccccc2)n1 | cytopathic effect | >10 µg/mL |
| CO[C@H](CO)[C@@H](O)CCn1cnc2c(=O)[nH]c(N)nc21 | cytopathic effect | >400 µg/mL |
| CC1(C)[C@@H](CCO)C[C@H]1n1cnc2c(N)nc(N)nc21 | cytopathic effect | >400 µg/mL |
| Nn1c(SCC(=O)O)nnc1-c1cn(-c2ccccc2)nc1-c1ccccc1 | cytopathic effect | >80 µg/mL |
| CC1=C[C@@H](n2cnc3c(N)ncnc32)[C@H](O)[C@@H]1O | cytopathic effect | >200 µg/mL |
| OC[C@H]1O[C@@H](c2cncc(Br)c2)[C@@H](O)[C@H]1O | cytopathic effect | ≥100 µg/mL |

Repeating the final 9 entries:

smiles,read by,result
NC(=O)c1cncc([C@@H]2O[C@H](CO)[C@H](O)[C@@H]2O)c1,cytopathic effect,≥100 µg/mL
CC=NC(=N)c1nc(-c2cccc(OC)c2)n(C/C=C/c2ccccc2)n1,cytopathic effect,>40 µg/mL
CON1CCc2c([nH]c3ccccc23)[C@@H]1[C@@H](N)CSC,cytopathic effect,>40 µg/mL
CC=NC(=N)c1nc(-c2cccc(C)c2)n(C/C=C/c2ccccc2)n1,cytopathic effect,>10 µg/mL
CO[C@H](CO)[C@@H](O)CCn1cnc2c(=O)[nH]c(N)nc21,cytopathic effect,>400 µg/mL
CC1(C)[C@@H](CCO)C[C@H]1n1cnc2c(N)nc(N)nc21,cytopathic effect,>400 µg/mL
Nn1c(SCC(=O)O)nnc1-c1cn(-c2ccccc2)nc1-c1ccccc1,cytopathic effect,>80 µg/mL
CC1=C[C@@H](n2cnc3c(N)ncnc32)[C@H](O)[C@@H]1O,cytopathic effect,>200 µg/mL
OC[C@H]1O[C@@H](c2cncc(Br)c2)[C@@H](O)[C@H]1O,cytopathic effect,≥100 µg/mL